Source: PubChem BioAssay AID1259414 (Drosophila RNAi Screening Center, 2018)

- Aim: 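Fly genes that alter Wolbachia amount inside host cells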 (primary screen)
- System: Drosophila JW18 cells infected with Wolbachia
- Reagents: long dsRNA against Drosophila genes, 0.25 µg dsRNA per well of a 384-well plate
- Time to read-out: 5 days
- Conditions: cells persistently infected with Wolbachia before knock-down; no added drug
- Detection: 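Automated imaging of bacterial rRNA staining divided by host cell count, reported as plate-normalised robust z-score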
- Reading the numbers: Wolbachia per cell robust z: higher = more Wolbachia per host cell than the plate typical
- Rule for the call: 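Hit when robust z is 1.5 or more, or -1.5 or less, in at least two of three replicates; excludes dsRNAs with several or no targets, genes not expressed in JW18 and well A1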
The screen tested about 24,000 reagents; shown is a random part of those with a known target gene and a result. Over the whole deposit, about 1,210 (5%) were called active. 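Inactive calls also include excluded dsRNAs with several or no targets, genes unexpressed in JW18, and well A1, regardless of score.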 The numbers tell different reagents against one gene apart. Names joined by + are all predicted targets of the reagent.

| gene knocked down | reagent no. | Wolbachia per cell robust z, rep 1 | Wolbachia per cell robust z, rep 2 | Wolbachia per cell robust z, rep 3 | Call |
| --- | --- | --- | --- | --- | --- |
| CG5742 | 1 | -0.0466 | -0.503 | -1.21 | inactive |
| CG5742 | 2 | -0.639 | 0.318 | 1.35 | inactive |
| CG34436 | 1 | 0.732 | 0.733 | -5.33 | inactive |
| Dh44 | 1 | 0.104 | 0.74 | 1.4 | inactive |
| Dh44 | 2 | -0.613 | 0.735 | -6.22 | inactive |
| Dhx15 | 1 | 1.06 | 1.12 | 0.441 | inactive |
| Dhx15 | 2 | 1.13 | 1.32 | 1.51 | inactive |
| SIFaR | 1 | 0.0604 | 0.306 | 0.448 | inactive |
| SIFaR | 2 | 0.803 | 1.25 | 0.763 | inactive |
| CG34260 | 1 | -0.55 | -0.683 | -0.254 | inactive |
| Nmdar2 | 1 | -1.4 | 0.0927 | -1.75 | inactive |
| Nmdar2 | 2 | -1.56 | 0.754 | 0.966 | inactive |
| Nmdar2 | 3 | -3.55 | 0.293 | -0.468 | inactive |
| Rh5 | 1 | -1.18 | -2.46 | -0.877 | inactive |
| Rh5 | 2 | 0.669 | -6.19 | -0.873 | inactive |
| Ostgamma | 1 | -0.621 | -3.65 | -1.65 | active |
| Kcmf1 | 1 | 0.64 | 0.639 | 0.932 | inactive |
| Kcmf1 | 2 | -1.06 | -0.179 | -1.22 | inactive |
| wor | 1 | 0.564 | 1.38 | -1.12 | inactive |
| wor | 2 | 0.374 | -1.17 | -0.154 | inactive |
| gNacalpha | 1 | -0.815 | -1.93 | -0.0409 | inactive |
| gNacalpha | 2 | 0.681 | 0.808 | 0.37 | inactive |
| Lip2 | 1 | -1.32 | 0.368 | -1.4 | inactive |
| Lip2 | 2 | -0.267 | -0.318 | 0.552 | inactive |
| Svip | 1 | 0.757 | 0.684 | 0.295 | inactive |
| Svip | 2 | 0.792 | 1.44 | 0.663 | inactive |
| CG9287 | 1 | -3.05 | -3.3 | -3.74 | inactive |
| CG9287 | 2 | -1.57 | -1.89 | -1.33 | inactive |
| CG15212 | 1 | -0.667 | 0.929 | 0.58 | inactive |
| CG15212 | 2 | 1.09 | -0.893 | -2.1 | inactive |
| snoRNA:Psi18S-1275 + RpS29 | 1 | 1.06 | 1.85 | 2.97 | inactive |
| Gyc88E | 1 | 0.347 | -1.13 | -1.99 | inactive |
| CG34051 | 1 | -0.73 | -5.48 | -2.35 | active |
| mys | 1 | 0.805 | 0.425 | 0.639 | inactive |
| mys | 2 | -0.0227 | 0.925 | 2.1 | inactive |
| beat-Vb | 1 | 0.0573 | -0.491 | 0.0418 | inactive |
| beat-Vb | 2 | -1.44 | -0.736 | -1.42 | inactive |
| beat-Vb | 3 | 0.198 | 0.616 | -1.64 | inactive |
| Smyd4-4 | 1 | -0.186 | 0.76 | -0.0482 | inactive |
| CG31344 | 1 | 0.192 | 0.0901 | -0.44 | inactive |
| CG31344 | 2 | -1.04 | -2.48 | -0.0452 | inactive |
| CG9628 | 1 | 0.81 | -3.18 | 1.05 | inactive |
| CG9628 | 2 | -0.131 | 0.34 | -7.18 | inactive |
| TpnC4 | 1 | -1.52 | -2.4 | -0.148 | inactive |
| CG31265 | 1 | 0.549 | 1.07 | 0.679 | inactive |
| CG31265 | 2 | -0.0918 | 0.567 | -0.785 | inactive |
| dpy | 1 | -0.533 | -1.21 | -0.771 | inactive |
| dpy | 2 | -1.35 | -1.59 | -0.911 | inactive |
| dpy | 3 | -1.24 | -0.526 | 0.417 | inactive |
| CkIIalpha-i3 | 1 | 0.198 | 0.64 | -0.343 | inactive |
| Rrp40 | 1 | -0.000823 | 0.664 | 0.477 | inactive |
| kirre | 1 | 0.0492 | -0.526 | -0.601 | inactive |
| kirre | 2 | 0.211 | 0.0507 | -0.562 | inactive |
| kirre | 3 | -2.32 | -0.141 | -0.398 | inactive |
| TfIIS | 1 | -0.203 | 1.04 | -0.235 | inactive |
| TfIIS | 2 | 1.2 | 0.0641 | 0.265 | inactive |
| salm | 1 | -1.42 | -6.29 | 0.885 | inactive |
| salm | 2 | 1.02 | 0.116 | 0.255 | inactive |
| Alp4 | 1 | 1.07 | 0.157 | -4.4 | inactive |
| Ser6 | 1 | -2.98 | -1.08 | -1.78 | inactive |
| Ser6 | 2 | 0.574 | 0.764 | -0.668 | inactive |
| CG4576 | 1 | -1.49 | 0.0786 | 1.08 | inactive |
| CG4576 | 2 | -0.255 | 0.289 | 0.697 | inactive |
| CG17167 | 1 | -0.62 | 0.313 | -0.16 | inactive |
| CG17167 | 2 | 0.66 | 0.666 | 0.833 | inactive |
| CG15385 | 1 | 0.541 | 0.207 | -3.64 | inactive |
| CngB | 1 | -7.03 | -0.817 | 0.432 | inactive |
| CG4325 | 1 | -0.231 | 0.842 | 1.2 | inactive |
| CG4325 | 2 | 0.496 | 0.228 | 1.58 | inactive |

Copied from above (11 entries):
| gene knocked down | reagent no. | Wolbachia per cell robust z, rep 1 | Wolbachia per cell robust z, rep 2 | Wolbachia per cell robust z, rep 3 | Call |
| --- | --- | --- | --- | --- | --- |
| Alp4 | 1 | 1.07 | 0.157 | -4.4 | inactive |
| Ser6 | 1 | -2.98 | -1.08 | -1.78 | inactive |
| Ser6 | 2 | 0.574 | 0.764 | -0.668 | inactive |
| CG4576 | 1 | -1.49 | 0.0786 | 1.08 | inactive |
| CG4576 | 2 | -0.255 | 0.289 | 0.697 | inactive |
| CG17167 | 1 | -0.62 | 0.313 | -0.16 | inactive |
| CG17167 | 2 | 0.66 | 0.666 | 0.833 | inactive |
| CG15385 | 1 | 0.541 | 0.207 | -3.64 | inactive |
| CngB | 1 | -7.03 | -0.817 | 0.432 | inactive |
| CG4325 | 1 | -0.231 | 0.842 | 1.2 | inactive |
| CG4325 | 2 | 0.496 | 0.228 | 1.58 | inactive |
